# A number of entries come with more than one value. This is not the full list of results. There may be further records. The values listed for one entry do not match, cause unknown; they may come from other doses, times, organisms or constructs than stated.
# By UniProt entry, the sequences of proteins in these tests, tags left out.
# UniProt P08543, whole entry: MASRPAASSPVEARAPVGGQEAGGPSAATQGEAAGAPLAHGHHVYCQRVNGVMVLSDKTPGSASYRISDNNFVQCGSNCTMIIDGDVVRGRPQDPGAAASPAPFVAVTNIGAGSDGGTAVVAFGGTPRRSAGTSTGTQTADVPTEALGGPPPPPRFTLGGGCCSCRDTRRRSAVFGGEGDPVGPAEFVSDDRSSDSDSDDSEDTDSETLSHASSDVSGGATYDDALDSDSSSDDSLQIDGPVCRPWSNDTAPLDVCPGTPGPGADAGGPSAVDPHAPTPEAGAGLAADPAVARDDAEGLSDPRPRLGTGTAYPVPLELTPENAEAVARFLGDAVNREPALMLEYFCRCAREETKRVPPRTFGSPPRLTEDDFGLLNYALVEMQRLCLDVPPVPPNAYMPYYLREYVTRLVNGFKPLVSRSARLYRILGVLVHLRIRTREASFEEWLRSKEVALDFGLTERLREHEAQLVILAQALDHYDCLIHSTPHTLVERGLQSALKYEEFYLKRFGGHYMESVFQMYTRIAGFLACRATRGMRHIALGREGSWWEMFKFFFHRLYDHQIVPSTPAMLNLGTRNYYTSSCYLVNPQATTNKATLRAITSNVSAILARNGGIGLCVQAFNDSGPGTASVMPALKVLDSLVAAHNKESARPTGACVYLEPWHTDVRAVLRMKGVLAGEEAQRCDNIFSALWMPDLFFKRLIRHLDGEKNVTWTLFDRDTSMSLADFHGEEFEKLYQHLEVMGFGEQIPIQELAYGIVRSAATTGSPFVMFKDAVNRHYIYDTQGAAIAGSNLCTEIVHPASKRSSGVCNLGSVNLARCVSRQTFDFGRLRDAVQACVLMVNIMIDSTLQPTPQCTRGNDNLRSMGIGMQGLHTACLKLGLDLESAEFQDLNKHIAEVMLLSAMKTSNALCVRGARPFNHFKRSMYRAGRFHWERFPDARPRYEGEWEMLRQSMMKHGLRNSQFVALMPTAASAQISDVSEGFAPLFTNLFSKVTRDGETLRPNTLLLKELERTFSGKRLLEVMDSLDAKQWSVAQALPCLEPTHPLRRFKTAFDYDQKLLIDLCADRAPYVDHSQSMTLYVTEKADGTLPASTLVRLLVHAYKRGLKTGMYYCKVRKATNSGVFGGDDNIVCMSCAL
# Target: HSV-1 ribonucleotide reductase (partially purified) (Human herpesvirus 1, UniProt P08543)
# Conditions: Table 5; concentration producing 50% of the maximal inhibition of enzyme activity; mean of four assays
smiles,measurement,value
CC[C@H](C)[C@H](NC(=O)[C@H](C(C)C)N(C)C(=O)CCc1ccccc1)C(=O)N[C@@H](CC(=O)N1CCCC1)C(=O)NC(C(=O)N[C@@H](CC(C)C)C(=O)O)C(C)(C)C(=O)O (stereo partly shown),IC50,70 nM and 280 nM

# From US5502036A, “Antiherpes pentapeptide derivatives having a substituted aspartic acid side chain” (priority 1989, dated 1996)
